Measured values from several laboratories, pooled; numbers as filed in NIAID ChemDB.

Shared fields: growth or infection tests; species: Human cytomegalovirus; measure: EC50

a–b is a range or a potency band. Neighbouring rows are from separate reports. ECn: concentration that inhibits the pathogen or its effect by n%. An empty or dashed field is not shown.

| compound | read by | strain | cell line | value |
|---|---|---|---|---|
| Cc1cc(C)cc(Cn2c(=O)ccn(CC(=O)c3ccccc3)c2=O)c1 | - | AD169 | - | 110 µM |
| Nc1nc2c(ncn2COC(CO)CO)c(=O)[nH]1 | plaque count | D16 (ganciclovir-resistant) | MRC-5 | 28 µg/mL |
| CCCCOC(=O)c1ccc2cc(-c3ccccc3)cn2c1 | plaque count | AD169 | MRC-5 | >100 µM |
| CCCCCCCCCCCCCCCCOCCCOP(=O)(O)CCCOCn1cnc2c(N)nc(N)nc21 | plaque count | AD169 | HFF | 2.85 µM |
| Nc1ncnc2c1ncn2C=C1CC1CO | plaque count | VR5120 (ganciclovir-resistant) | - | 2 µM |
| O[C@@H]1[C@H](O)[C@H](O)CO[C@H]1n1c(Br)nc2cc(Cl)c(Cl)cc21 | plaque count | GDGP53 (A987G) | MRC-5 | 1.3 µM |
| Cc1cc(C)cc(Cn2c(=S)ccn(Cc3cccnc3)c2=O)c1 | - | AD169 | - | >59 µM |
| Cc1cncc2ccc(C(=O)NCc3ccccc3OC(C)C)nc12 | plaque count | C8704 (ganciclovir-resistant UL97 mutant) | MRC-5 | 0.11 µg/mL |
| Cc1ccn2c(CSCc3ccccc3)c(-c3ccc4ccccc4c3)nc2c1 | cytopathic effect | DAVIS | HEL | 1.2 µg/mL |
| Fc1ccc2cc(-c3ccccc3)cn2c1 | plaque count | AD169 | MRC-5 | >100 µM |
| Cc1ccc(S(=O)(=O)NC(N)=NCCC[C@H](NC(=O)OCc2cccnc2)C(=O)N[C@H](C(=O)N[C@H](C=O)Cc2ccccc2)C(C)(C)C)cc1 | plaque count | DAVIS | HELF | 0.39 µM |
| Nc1ncnc2c1c(Cl)cn2COCCO | - | TOWNE | - | 4.3 µM |
| Cc1cc(C)cc(Cn2c(=O)cc(Cl)n(CC#N)c2=O)c1 | - | AD169 | - | >66 µM |
| Cc1cccn2c(CSCc3ccccc3)cnc12 | cytopathic effect | DAVIS | HEL | 0.12 µg/mL |
| CN(C)c1cccc2c(S(=O)(=O)Nc3ccc(NC(=O)C(C)(C)C=O)cc3)cccc12 | cytopathic effect | DAVIS | Human embryonic lung fibroblasts | 0.29 µM |
| Cc1cc(C)n2cc(-c3ccccc3)cc2c1 | plaque count | AD169 | MRC-5 | 2.7 µM |
| OC[C@H]1O[C@@H](n2c(Cl)nc3cc(Cl)c(Cl)cc32)[C@H](O)[C@@H]1O | plaque count | TOWNE | HFF | 2.8 µM |
| O=c1[nH]c(=S)n([C@@H]2O[C@H](CO)[C@@H](O)[C@@H]2O)cc1/C=C/Br | plaque count | AD169 | MRC-5 | >213 µM |
| CCOP(=O)(O)CCC(CO)OCn1cnc2c(=O)[nH]c(N)nc21 | plaque count | C8805 (ganciclovir-resistant) | MRC-5 | 320 µg/mL |
| Cc1cn([C@@H]2O[C@H](CO)[C@H]2CO)c(=O)[nH]c1=O | plaque count | DAVIS | HFF | >100 µg/mL |
| Nc1nc2c(ncn2COCCCP(=O)([O-])O)c(=O)[nH]1 | plaque count | AD169 | HFF | 5.4 µM |
| CC(C)(C)[Si](OC[C@H]1C[C@@H](Cn2cnc3c(N)ncnc32)c2cn(Cc3ccccc3)nc21)(c1ccccc1)c1ccccc1 | - | AD169 | HEL | 0.5 µM |
| Cc1ccn2c(CSCc3ccccc3)c(-c3ccncc3)nc2c1 | cytopathic effect | AD169 | HEL | 3.2 µg/mL |
| Cc1cc(C)cc(Cn2c(=O)ccn(Cc3ccc(Cl)cc3)c2=O)c1 | - | AD169 | - | >56 µM |
| CCCCCCCCCCCCCCCCOCCCOP(=O)(O)CCCOCn1cnc2c(=O)[nH]c(N)nc21 | plaque count | AD169 | HFF | 0.14 µM |
| Nc1nc2c(ncn2COC(CO)CO)c(=O)[nH]1 | plaque count | BT1493 | HFF | 1.1 µM |
| CCCc1cn([C@H]2C[C@H](O)[C@@H](CO)O2)c(=S)[nH]c1=O | plaque count | 93-1R | MRC-5 | >277.6 µM |
| Cc1nc2ccc(CN(C)c3ccc(C(=O)N[C@@H](CCC(=O)O)C(=O)O)s3)cc2c(=O)[nH]1 | virus yield | - | - | 0.002 µM |
| Nc1nc2c(ncn2C[C@@H]2CC[C@@H](P(=O)(O)O)O2)c(=O)[nH]1 | plaque count | P8 ganciclovir-sensitive | MRC-5 | 0.2 µg/mL |
| CCc1cn([C@@H]2O[C@H](CO)[C@@H](O)[C@@H]2O)c(=S)[nH]c1=O | plaque count | AD169 | MRC-5 | >213 µM |
| Cc1cc(C)cc(Cn2c(=S)ccn(Cc3ccccn3)c2=O)c1 | - | AD169 | - | 30 µM |
| O=C1c2ccccc2[C@@]2(O)[C@H]3C4CC5CC(C4)CC3(C5)CN12 | plaque count | AD169 | HEL | >20 µg/mL |
| Nc1nc2c(ncn2[C@@H]2C[C@H](CO)[C@H]2CO)c(=O)[nH]1 | plaque count / crystal violet | AD169 | HEL | 0.19 µg/mL |
| O=C1c2ccccc2C(=O)N1CCCC1C2CC3CC(C2)CC1C3 | plaque count | AD169 | HEL | ≥4 µg/mL |
| CN(C)c1cccc2c(S(=O)(=O)Nc3ccc(NC(=O)C(C)(C)CO)cc3)cccc12 | plaque count | Ganciclovir-resistant | - | 14 µM |
| C=Cc1cn([C@@H]2O[C@H](CO)[C@@H](O)[C@@H]2O)c(=S)[nH]c1=O | plaque count | T-137 | MRC-5 | >213 µM |
| O=C(NCc1ccc(Cl)cc1)c1cn2c3c(cc(CN4CCOCC4)cc3c1=O)OC(c1cccnc1)C2 | plaque count | DAVIS | HFF | 3.9 µM |
| Cc1ccn2c(CSCc3ccccc3)c(-c3cccs3)nc2c1 | cytopathic effect | DAVIS | HEL | 7 µg/mL |
| CC(=O)c1c(-c2ccc(C#N)cc2)cc2ccccn12 | plaque count | AD169 | MRC-5 | >100 µM |
| Nc1nc2c(ncn2COCCO)c(=O)[nH]1 | plaque count / crystal violet | AD169 | HEL | 13.2 µg/mL |
| OC[C@H]1OC(c2c(-c3ccccc3)cc3c(Cl)cc(C(F)(F)F)cn23)[C@H](O)[C@@H]1O | plaque count | AD169 | MRC-5 | >20 µM |
| Cn1cc(C(=O)NCc2ccc(Cl)cc2)c(=O)c2cc(CN3CCOCC3)ccc21 | plaque count | 9 isolates | - | 0.94 µM |
| O=C1c2ccccc2C(=O)N1[C@H]1CC2CC3CC(C2)C1C3 | plaque count | DAVIS | HEL | >20 µg/mL |
| Cc1cc(C)cc(Cn2c(=S)ccn(Cc3ccc(C(C)(C)C)cc3)c2=O)c1 | - | AD169 | - | >120 µM |
| Cn1cc(C(=O)NCc2ccc(Cl)cc2)c(=O)c2cc(CN3CCOCC3)ccc21 | plaque count | 1117/R (CDV GCV-resistant) | HFF | 1.5 µM |
| Brc1ccc(-c2cc3ccccn3c2)cc1 | plaque count | AD169 | MRC-5 | >100 µM |
| Oc1ccc(-c2nc(-c3ccc(F)cc3)c(-c3ccncc3)[nH]2)cc1 | plaque count | TOWNE | HEL | 10–100 µM |
| c1ccc(-c2cc3ccccn3c2)cc1 | plaque count | AD169 | MRC-5 | 7–19 µM |
| O=c1[nH]c(=S)n([C@@H]2O[C@H](CO)[C@@H](O)[C@@H]2O)cc1CCO | plaque count | AD169 | MRC-5 | >213 µM |
| Nc1nc(N)c2ncn(COCCCP(=O)(O)O)c2n1 | plaque count | AD169 | HFF | >100 µM |
| Fc1cccn2cc(-c3ccccc3)cc12 | plaque count | AD169 | MRC-5 | >100 µM |

The last 5 rows once more:

compound,read by,strain,cell line,value
Oc1ccc(-c2nc(-c3ccc(F)cc3)c(-c3ccncc3)[nH]2)cc1,plaque count,TOWNE,HEL,10–100 µM
c1ccc(-c2cc3ccccn3c2)cc1,plaque count,AD169,MRC-5,7–19 µM
O=c1[nH]c(=S)n([C@@H]2O[C@H](CO)[C@@H](O)[C@@H]2O)cc1CCO,plaque count,AD169,MRC-5,>213 µM
Nc1nc(N)c2ncn(COCCCP(=O)(O)O)c2n1,plaque count,AD169,HFF,>100 µM
Fc1cccn2cc(-c3ccccc3)cc12,plaque count,AD169,MRC-5,>100 µM